Consider 1 substance from paper PMC4089486, “Structural and biochemical analyses of alanine racemase from the multidrug-resistant Clostridium difficile strain 630” (Acta Crystallographica Section D: Biological Crystallography, 2014).

The test system of one data set is C[C@@H](N)C(=O)O. The data set can be described thus: purified protein. The following applies: D-Ala to L-Ala, 50 mM sodium borate pH 8.5.
A further data set deals with C[C@H](N)C(=O)O. As to the kind of experiment: purified protein. The following applies: L-Ala to D-Ala, 50 mM sodium borate pH 8.5.

With “CdAlr (C. difficile alanine racemase; CdAlrWT) (Clostridioides difficile 630; K271T)”, in the data set with C[C@@H](N)C(=O)O, the Km (as a rule, the substrate concentration at which the rate is half of its maximum) is given as 5.4 mM; the Vmax (commonly the rate approached at saturating substrate) is 1800 µmol/min/mg; the kcat (usually the number of substrate molecules converted per active site and unit of time at saturation) worked out at 1300 s⁻¹. In addition, in the data set on C[C@H](N)C(=O)O, the Km is on record as 13.8 mM and the kcat turned out to be 3280 s⁻¹.
